Each structure is given as a SMILES string.

The text below walks through data of article PMC9519446, “Discovery of an Orally Active Benzoxaborole Prodrug Effective in the Treatment of Chagas Disease in Non-human Primates” (Nature microbiology, 2022).

The assay concerns CPSF3-OE T. cruzi intracellular amastigotes. Format: cell-based, Trypanosoma cruzi. The settings on record: T. cruzi CPSF3-OE vs WT. On the procedure: The in vitro anti-T. cruzi amastiogote activity assay was performed and optimized based on the protocol described previously. The change in tdTomato fluorescence intensity was determined as a measurement of growth over 72 hours of culture. For assaying drug effects on extracellular amastigotes, trypomastigotes were collected from infected Vero cell cultures and converted in acidic media as previously described. Amastigotes (50,000/well) were incubated with 2-fold serial dilutions of compounds for 48 hours. The ATP production was used as an indication of growth in this case, and was measured by ATPlite Luminescence ATP Detection Assay System (PerkinElmer). Both fluorescence and luminescence were read using a BioTek Synergy Hybrid Multi-Mode reader equipped with the software Gene5 v 2.0 (BioTek). […]
To confirm the CPSF overexpression in the selected transfectants, RNA was extracted as previously described and converted to cDNA using SuperScript Reverse Transcriptase (Invitrogen). Quantitative PCR reactions were performed in triplicate on the C1000 Touch Bio-Rad CFX96 real-time PCR detection system for CPSF using primer sets CPSF-1 (5'-[…]-3' and 5'-[…]-3') and CPSF-2 (5'-[…]-3' and 5'-[…]-3') in both control and CPSF over-expressing parasites, and the expression level was normalized to tubulin which was amplified using primers: ‘[…]’ and ‘[…]’.

With `Cc1c(C(=O)N[C@H](C(=O)OCC2CCOCC2)C(C)C)ccc2c1B(O)OC2` [AN15368], the “increase in resistance on overexpression of CPSF3” value was 3-5 fold.
